From article PMC6410080 (Viruses, 2019) come the findings set out here.

The assay deals with SFV internalisation. Briefly: SFV internalisation assay (subtilisin resistance). The format is cell-based, Semliki Forest virus. The conditions noted are these: HeLa Kyoto, 10 μM, 20, 40 or 60 min at 37 °C.

With `CC(C)(C)c1cc(C=C(C#N)C#N)cc(C(C)(C)C)c1O` [Tyrphostin A9], the “Kinetics of SFV internalisation (subtilisin resistance)” value is given as “remained lower compared to untreated control”.
